This is an account of results in article PMC8866119, “Omicron escapes the majority of existing SARS-CoV-2 neutralizing antibodies” (2021).

The target in this test is SARS-CoV-2 wild-type RBD (SARS-CoV-2) (UniProt P0DTC2). Description: BLI. For orientation: Biolayer interferometry detects binding as a change in optical thickness at a sensor tip.

The term Kd denotes a measure of binding affinity in units of concentration. A lower Kd goes with a tighter complex. One may read the koff as the rate constant with which the complex falls apart. As to BRII-196, the Kd came out at 1.83 nM and the off-rate constant (koff) came to 0.000708 s⁻¹.
